Compound potency records, mixed from different reports. Data source: NIAID ChemDB in PubChem.

Common to all: growth or infection tests; organism: Candida albicans; read-out: MIC50

Neighbouring rows are from separate reports. MIC50, MIC90 and the like: level of inhibition, or share of isolates inhibited. An empty or dashed field is not shown.

{"SMILES": "CCC(C)n1ncn(-c2ccc(N3CCN(c4ccc(OC[C@H]5CO[C@](Cn6cncn6)(c6ccc(Cl)cc6Cl)O5)cc4)CC3)cc2)c1=O", "strain or isolate": "50 isolates", "result": "0.01 µg/mL"}
{"SMILES": "Cc1nc2cc(Cl)c(Cl)cc2n1[C@@H]1O[C@H](CO)[C@@H](O)[C@H]1O", "strain or isolate": "52 strains", "result": "2 µg/mL"}
{"SMILES": "CC(C)CCC[C@@H](C)[C@H]1CCC2C3C(CC[C@@]21C)[C@@]1(C)CCC(=O)CC1C[C@H]3O", "strain or isolate": "CIP 1663-86", "result": ">50 µg/mL"}
{"SMILES": "O=[N+]([O-])/C(Br)=C\\c1ccc(Br)o1", "strain or isolate": "138 isolates", "result": "2 µg/mL"}
{"SMILES": "CC[C@@H]([C@H](C)O)n1ncn(-c2ccc(N3CCN(c4ccc(OC[C@@H]5CO[C@@](Cn6cncn6)(c6ccc(F)cc6F)C5)cc4)CC3)cc2)c1=O", "strain or isolate": "84 isolates", "result": "0.015 µg/mL"}
{"SMILES": "Clc1ccc(COC(Cn2ccnc2)c2ccc(Cl)cc2Cl)c(Cl)c1", "strain or isolate": "15 isolates", "result": "3 µg/mL"}
{"SMILES": "C=C(CF)CN1C[C@H](OC[C@@]23C[C@@H]4[C@H](C)CC[C@H]4[C@@]4(C=O)C[C@@H]2CC(C(C)C)[C@@]34C(=O)O)O[C@H](C)C1", "strain or isolate": "16 isolates", "result": "0.004 µg/mL"}
{"SMILES": "CCC(C)CC(C)CCCCCCCCC(=O)N[C@H]1C[C@@H](O)[C@H](NCCN)NC(=O)[C@@H]2[C@@H](O)CCN2C(=O)[C@H]([C@H](O)CCN)NC(=O)[C@H]([C@H](O)[C@@H](O)c2ccc(O)cc2)NC(=O)[C@@H]2C[C@@H](O)CN2C(=O)[C@H]([C@@H](C)O)NC1=O", "strain or isolate": "40 strains", "result": "0.5 µg/mL"}
{"SMILES": "C=C1C[C@H](N)[C@H](C(=O)O)C1", "strain or isolate": "69 clinical isolates", "result": "16 µg/mL"}
{"SMILES": "C=CC(C)(C)c1c2c(c(O)c3ccc(=O)oc13)C(=O)CC(C)(C)O2", "result": ">50 µg/mL"}
{"SMILES": "Fc1ccc(C(c2c[nH]cc2-c2ccc(Cl)cc2)n2ccnc2)cc1", "strain or isolate": "40 strains", "result": "8 µg/mL"}
{"SMILES": "CCC(c1ccc(OC)cc1)C(O)c1ccc(OC)cc1", "strain or isolate": "28 strains", "result": ">256 µg/mL"}
{"SMILES": "CCCCCCCCCCCCCCCCOP(=O)([O-])OCC[N+](C)(C)C", "result": "2 µg/mL"}
{"SMILES": "COc1ccc(C(Cc2ccc(Cl)cc2)n2ccnc2)cc1", "strain or isolate": "28 strains", "result": "8 µg/mL"}
{"SMILES": "CC(C)CCC[C@@H](C)[C@H]1CCC2C3CC(=O)C4=CC(=O)CC[C@]4(C)C3CC[C@@]21C", "strain or isolate": "CIP 1663-86", "result": "25 µg/mL"}
{"SMILES": "C[C@H]1[C@H](O)[C@@H](C)/C=C/C=C/C=C/C=C/C=C/C=C/C=C/[C@H](O[C@@H]2O[C@H](C)[C@@H](O)[C@H](N)[C@@H]2O)C[C@@H]2O[C@](O)(C[C@@H](O)C[C@@H](O)CC[C@H](O)[C@@H](O)C[C@@H](O)CC(=O)O[C@H]1C)C[C@H](O)[C@H]2C(=O)O", "strain or isolate": "ATCC 90028", "result": "0.05 µg/mL"}
{"SMILES": "c1ccc(-c2ccc(C(c3ccccc3)n3ccnc3)cc2)cc1", "result": "0.67 µg/mL"}
{"SMILES": "COc1ccc(CC(c2ccc(OC)cc2)n2cncn2)cc1", "strain or isolate": "28 strains", "result": "64 µg/mL"}
{"SMILES": "C/C=C/[C@@H]1OC(=O)C=C[C@@H]1O", "result": "<1 µg/mL"}
{"SMILES": "CCC(C)CC(C)CCCCCCCCC(=O)N[C@H]1C[C@@H](O)[C@H](NCCN)NC(=O)[C@@H]2[C@@H](O)CCN2C(=O)[C@H]([C@H](O)CCN)NC(=O)[C@H]([C@H](O)[C@@H](O)c2ccc(O)cc2)NC(=O)[C@@H]2C[C@@H](O)CN2C(=O)[C@H]([C@@H](C)O)NC1=O", "strain or isolate": "10 strains (fluconazole-resistant)", "result": "0.5 µg/mL"}
{"SMILES": "CCC(c1ccc(Cl)cc1)C(c1ccc(OC)cc1)n1ccnc1", "strain or isolate": "28 strains", "result": "32 µg/mL"}
{"SMILES": "CC(C)(N)CSCc1ccc(-c2csc(-c3ccc(Cl)cc3)n2)cc1", "result": "4 µg/mL"}
{"SMILES": "O=C(OC[C@H]1CO[C@](Cn2ccnc2)(c2ccc(-c3ccccc3)cc2)O1)c1ccccc1", "strain or isolate": "44 strains", "result": "8 µg/mL"}
{"SMILES": "C[C@@H](c1ncncc1F)[C@](O)(Cn1cncn1)c1ccc(F)cc1F", "strain or isolate": "100 isolates", "result": "≤0.06 µg/mL"}
{"SMILES": "C=CCN1C[C@H](OC[C@@]23C[C@@H]4[C@H](C)CC[C@H]4[C@@]4(C=O)C[C@@H]2CC(C(C)C)[C@@]34C(=O)O)O[C@H](C)C1", "strain or isolate": "16 isolates", "result": "0.008 µg/mL"}
{"SMILES": "CCC(C)CC(C)CCCCCCCCC(=O)N[C@H]1C[C@@H](O)[C@H](NCCN)NC(=O)[C@@H]2[C@@H](O)CCN2C(=O)[C@H]([C@H](O)CCN)NC(=O)[C@H]([C@H](O)[C@@H](O)c2ccc(O)cc2)NC(=O)[C@@H]2C[C@@H](O)CN2C(=O)[C@H]([C@@H](C)O)NC1=O", "strain or isolate": "40 isolates", "result": "0.5 µg/mL"}
{"SMILES": "C=CC(C)(C)c1c2c(c(O)c3ccc(=O)oc13)C=CC(C)(C)O2", "result": ">50 µg/mL"}
{"SMILES": "C[C@@H](SC1COC(/C=C/C=C/c2ccc(C#N)cc2F)OC1)[C@](O)(Cn1cncn1)c1ccc(F)cc1F", "strain or isolate": "139 strains", "result": "≤0.008 µg/mL"}
{"SMILES": "CNCCN(C)CCc1ccc(-c2csc(-c3ccc(Cl)cc3)n2)cc1", "result": "4 µg/mL"}
{"SMILES": "C=C(C)C(O)Cc1c(O)ccc(C(=O)/C=C/c2ccc(O)cc2)c1O", "result": "15 µg/mL"}
{"SMILES": "C[C@H]1[C@H](O)[C@@H](C)/C=C/C=C/C=C/C=C/C=C/C=C/C=C/[C@H](O[C@@H]2O[C@H](C)[C@@H](O)[C@H](N)[C@@H]2O)C[C@@H]2O[C@](O)(C[C@@H](O)C[C@@H](O)CC[C@H](O)[C@@H](O)C[C@@H](O)CC(=O)O[C@H]1C)C[C@H](O)[C@H]2C(=O)O", "strain or isolate": "50 isolates", "result": "0.05 µg/mL"}
{"SMILES": "OC[C@@H]1CO[C@](Cn2ccnc2)(c2ccc(-c3ccccc3)cc2)O1", "strain or isolate": "44 strains", "result": "128 µg/mL"}
{"SMILES": "C=C(C)CN1C[C@H](OC[C@@]23C[C@@H]4[C@H](C)CC[C@H]4[C@@]4(C=O)C[C@@H]2CC(C(C)C)[C@@]34C(=O)O)O[C@H](C)C1", "strain or isolate": "16 isolates", "result": "0.004 µg/mL"}
{"SMILES": "O=C(OCC1COC(Cn2ccnc2)(c2ccc(-c3ccccc3)cc2)O1)c1ccccc1", "strain or isolate": "44 strains", "result": "8 µg/mL"}
{"SMILES": "COc1cc(C=O)cc2c1[nH]c1ccccc12", "result": ">50 µg/mL"}
{"SMILES": "Nc1[nH]c(=O)ncc1F", "strain or isolate": "50 isolates", "result": "0.16 µg/mL"}
{"SMILES": "COc1ccc(-c2nnc(-c3ccc(C(C)(C)N)cc3)o2)cc1", "result": "4 µg/mL"}
{"SMILES": "CC(N1CCN(c2ccc(-n3cnnn3)cc2)C1=O)[C@](O)(Cn1cncn1)c1ccc(F)cc1F", "strain or isolate": "105 strains", "result": "0.016 µg/mL"}
{"SMILES": "COc1ccc(CC(c2ccc(OC)cc2)n2cnnc2)cc1", "strain or isolate": "28 strains", "result": "256 µg/mL"}
{"SMILES": "CCS(=O)(=O)C(F)(F)C(O)(Cn1cncn1)c1ccc(F)cc1F", "strain or isolate": "6 strains (fluconazole-resistant)", "result": "1 µg/mL"}
{"SMILES": "COc1ccc(C(C(Cc2ccc(Cl)cc2Cl)c2ccc(Cl)cc2)n2ccnc2)cc1", "strain or isolate": "28 strains", "result": "4 µg/mL"}
{"SMILES": "O=[N+]([O-])c1ccc(C(c2c[nH]cc2-c2ccc(Cl)c(Cl)c2)n2ccnc2)cc1", "strain or isolate": "40 strains", "result": "156 µg/mL"}
{"SMILES": "C[C@@H]([C@H](N)C(=O)N[C@H](C(=O)O)[C@H]1O[C@@H](n2ccc(=O)[nH]c2=O)[C@H](O)[C@@H]1O)[C@H](O)c1ccc(O)cn1", "strain or isolate": "15 isolates", "result": "4 µg/mL"}
{"SMILES": "CCCCCCCCOc1ccc(-c2ccc(C(=O)NC3CC(NCCN)CNC(=O)[C@@H]4[C@@H](O)[C@@H](C)CN4C(=O)[C@@H](CO)NC(=O)[C@H]([C@H](O)Cc4ccccc4)NC(=O)[C@@H]4C[C@@H](O)CN4C(=O)[C@H]([C@@H](C)O)NC3=O)cc2)cc1", "strain or isolate": "33 isolates fluconazole-resistant", "result": "0.125 µg/mL"}
{"SMILES": "CCCCCCCCCCCCCCCC(=O)NC1CC(O)C(O)NC(=O)C2C(O)C(C)CN2C(=O)C(C(O)CC(N)=O)NC(=O)C(C(O)Cc2ccc(O)c(OS(=O)(=O)O)c2)NC(=O)C2CC(O)CN2C(=O)C(C(C)O)NC1=O", "strain or isolate": "FP582", "result": "0.015 µg/mL"}
{"SMILES": "CCCCCOc1ccc(-c2ccc(-c3ccc(C(=O)N[C@H]4C[C@@H](O)[C@@H](O)NC(=O)[C@@H]5[C@@H](O)[C@@H](C)CN5C(=O)[C@H]([C@H](C)O)NC(=O)[C@H]([C@H](O)[C@@H](O)c5ccc(O)cc5)NC(=O)[C@@H]5C[C@@H](O)CN5C(=O)[C@H]([C@H](C)O)NC4=O)cc3)cc2)cc1", "strain or isolate": "15 strains", "result": "0.25 µg/mL"}
{"SMILES": "C=CC(C)(C)c1c2c(c(OC)c3ccc(=O)oc13)C=CC(C)(C)O2", "result": ">50 µg/mL"}
{"SMILES": "CC(C)CCC[C@@H](C)[C@H]1CCC2C3C(CC[C@@]21C)[C@@]1(C)CCC(=O)CC1C[C@@H]3O", "strain or isolate": "CIP 1663-86", "result": ">50 µg/mL"}
{"SMILES": "CCC(C)n1ncn(-c2ccc(N3CCN(c4ccc(OC[C@@H]5CO[C@@](Cn6cncn6)(c6ccc(F)cc6F)O5)cc4)CC3)cc2)c1=O", "strain or isolate": "52 strains", "result": "0.06 µg/mL"}
{"SMILES": "O=Cc1ccc2[nH]c3ccccc3c2c1", "result": "13.6 µg/mL"}
{"SMILES": "CC(=O)OCC1C=C(c2ccc(Cl)c(Cl)c2)C(=O)O1", "strain or isolate": "9 isolates fluconazole-resistant", "result": "2 µg/mL"}

The last 8 rows once more:

SMILES,strain or isolate,result
CCCCCCCCOc1ccc(-c2ccc(C(=O)NC3CC(NCCN)CNC(=O)[C@@H]4[C@@H](O)[C@@H](C)CN4C(=O)[C@@H](CO)NC(=O)[C@H]([C@H](O)Cc4ccccc4)NC(=O)[C@@H]4C[C@@H](O)CN4C(=O)[C@H]([C@@H](C)O)NC3=O)cc2)cc1,33 isolates fluconazole-resistant,0.125 µg/mL
CCCCCCCCCCCCCCCC(=O)NC1CC(O)C(O)NC(=O)C2C(O)C(C)CN2C(=O)C(C(O)CC(N)=O)NC(=O)C(C(O)Cc2ccc(O)c(OS(=O)(=O)O)c2)NC(=O)C2CC(O)CN2C(=O)C(C(C)O)NC1=O,FP582,0.015 µg/mL
CCCCCOc1ccc(-c2ccc(-c3ccc(C(=O)N[C@H]4C[C@@H](O)[C@@H](O)NC(=O)[C@@H]5[C@@H](O)[C@@H](C)CN5C(=O)[C@H]([C@H](C)O)NC(=O)[C@H]([C@H](O)[C@@H](O)c5ccc(O)cc5)NC(=O)[C@@H]5C[C@@H](O)CN5C(=O)[C@H]([C@H](C)O)NC4=O)cc3)cc2)cc1,15 strains,0.25 µg/mL
C=CC(C)(C)c1c2c(c(OC)c3ccc(=O)oc13)C=CC(C)(C)O2,-,>50 µg/mL
CC(C)CCC[C@@H](C)[C@H]1CCC2C3C(CC[C@@]21C)[C@@]1(C)CCC(=O)CC1C[C@@H]3O,CIP 1663-86,>50 µg/mL
CCC(C)n1ncn(-c2ccc(N3CCN(c4ccc(OC[C@@H]5CO[C@@](Cn6cncn6)(c6ccc(F)cc6F)O5)cc4)CC3)cc2)c1=O,52 strains,0.06 µg/mL
O=Cc1ccc2[nH]c3ccccc3c2c1,-,13.6 µg/mL
CC(=O)OCC1C=C(c2ccc(Cl)c(Cl)c2)C(=O)O1,9 isolates fluconazole-resistant,2 µg/mL